{"source": "patent US20240254201A1", "about": "(ACADEMY OF MILITARY MEDICAL SCIENCE PLA, published 2024)", "binders": {"B1": {"name": "monoclonal antibody 2G1 (antibody, V domains shown)", "VH": "EVQLVESGGGLVKRGGSLRLSCVVSGYTFGGYSMHWVRQAPGKGLEWVSGISSSSYYKYYADSVKGRFTISRDNAKNSLYLQMNSLRAEDTAVYYCARDMGYCSGGSCPNFDFWGQGTTVTVSS", "VL": "DIQMTQSPSSLSASVGDRVTITCRTSQSISNYLNWYQQIPGKAPKLLISTASNLHSGVSSRFSGSGSGTHFTLTISSLQPEDFATYYCQQSYSTPSFGQGTKVEIKR", "notes": "also called 2G1-WT; wild-type 2G1"}}, "molecular_target": "T1, BDBV GP (Bundibugyo ebolavirus (BDBV))", "T1 construct": "also called Bundibugyo ebolavirus GP", "assay": "ELISA, purified antibody on coated GP (1 µg/mL)"}
{"binder": "B1", "values": [{"measurement": "EC50", "result": 7.5, "unit": "ng/mL"}]}
